In this assay the target is BDBV GPΔTM (Bundibugyo virus (BDBV)). Kind of assay: ELISA. As to conditions: both partners purified.

These results are taken from PMC6328579, “Post-exposure immunotherapy for two ebolaviruses and Marburg virus in nonhuman primates” (Nature Communications, 2019).

B1: FVM04 (antibody, V domains shown)
VH: EVQLVQSGGGLVQPGGSMRLSCEASGLSLSDYFMHWVRQAQGKGLEWIGLIQTKAFTYKTEYPAAVKGRFTISRDDSKNTLYLQMSSLKPEDTALYYCIAVTPDFYYWGQGVLVTVSS
VL: DVVMTQSPSFLSASVGDRVTITCRASQDITINLNWFQHKPGKAPKRLIYVASRLERGVPSRFSGSGSGTEFTLTISSLQPEDFATYYCQQYNNYPLTFGPGTKLDIK
For B1, the binding result is recorded as “binds”.
